Measured values from several laboratories, pooled; numbers as filed in NIAID ChemDB.

Common to all: tests in culture; organism: Hepatitis B virus; read-out: EC50

Conditions beyond the fields shown may differ between rows.

structure | strain | cell line | method | result
Nc1cc(OCCOCP(=O)(O)O)nc(=O)[nH]1 |  | HEPAD79 | PCR | >300 µM
COc1cc(C2Oc3cc(O)cc(O)c3C(=O)C2OC2O[C@H](CO)[C@@H](O)[C@H](O)[C@H]2O)ccc1O |  | HepG2.2.15 | ELISA / antigen | 447 µM
C[C@H](COc1cc(N)nc(N)n1)OCP(=O)(O)O |  | HEPAD79 | PCR | 1.1 µM
COc1cc2oc(=O)ccc2cc1O |  | HepG2.2.15 | ELISA / antigen | 451 µM
Cc1cn([C@H]2O[C@@H](CO)[C@H](O)[C@H]2F)c(=O)[nH]c1=O | WILD TYPE |  |  | 0.83 µM
Nc1ccn([C@@H]2CS[C@H](CO)O2)c(=O)n1 | Mutation L526M | HepG2 |  | 0.03 µM
COc1ccc(Sc2nc(N)nc3c2ncn3CCOCP(=O)(OCC(F)(F)F)OCC(F)(F)F)cc1 | Mutation M552V | Huh7 |  | 3.3 µM
C[C@@H](COc1cc(N)nc(N)n1)OCP(=O)(O)O |  | HepAD38 | PCR | 61 µM
CCCCCCCCCCCCCC(=O)O[C@@H]1[C@@H](C)[C@@]2(O)[C@@H](C=C(CO)C[C@]3(O)C(=O)C(C)=C[C@@H]23)[C@@H]2C(C)(C)[C@]12OC(C)=O |  | HB611 |  | 100 µM
O=C1C[C@@H](c2ccc(O)cc2)Oc2cc(OC3O[C@H](CO)[C@@H](O)[C@H](O)[C@H]3O)cc(O)c21 |  | HepG2.2.15 | ELISA / antigen | 371 µM
CCOP(=O)(COCCn1cnc2c(=O)[nH]c(N)nc21)OCC |  | HB611 |  | 1.2 µM
COC(C)c1ccc(O)c(O)c1 |  | HepG2.2.15 | ELISA / antigen | 1640 µM
Nc1ccn([C@@H]2CS[C@H](CO)O2)c(=O)n1 |  | HEPAD79 | PCR | 0.65 µM
Cc1cn(C[C@@H](CO)OCP(=O)(O)O)c(=O)[nH]c1=O |  | HB611 |  | >400 µM
Nc1nc(N)c2ncn(CCOCP(=O)(O)O)c2n1 |  | HEPAD79 | PCR | 0.5 µM
CC(O)(Cn1cnc2c(N)ncnc21)P(=O)(O)O |  | HB611 |  | 45 µM
Nc1ncnc2c1ncn2CCOCP(=O)(O)O | M550V |  |  | 2.8 µM
C[C@@H](Cn1cnc2c(N)nc(N)nc21)OCP(=O)(O)O |  | HEPAD79 | PCR | 14.5 µM
CO[C@@H]1O[C@H](COC(=O)/C=C/c2ccc(O)c(O)c2)[C@@H](O)[C@H](O)[C@H]1O |  | HepG2.2.15 | PCR | 6.84 µM
Nc1cc(OCCOCP(=O)(O)O)nc(N)n1 |  | HEPAD79 | PCR | 0.25 µM
CC[C@H]1OC(O[C@@H]2[C@@H]3[C@](C)(CC[C@H]2C(C)C)[C@H](O)CC[C@]3(C)O)[C@H](O)[C@@H](O)[C@@H]1O |  | HepG2.2.15 | ELISA / antigen | 9 µM

An empty or dashed field is not shown. ECn: concentration that inhibits the pathogen or its effect by n%.